{"source": "ChEMBL document CHEMBL1151424", "about": "“In vitro efficacy of new antifolates against trimethoprim-resistant Bacillus anthracis” (Antimicrob Agents Chemother, 2007)"}
{"experiment": "Selectivity ratio of IC50 for human recombinant DHFR to IC50 for histidine-tagged Bacillus anthracis Sterne recombinant DHFR"}
{"smiles": "COc1cc(Cc2cnc(N)nc2N)cc(CCC(=O)N2N=Cc3ccccc3C2C)c1OC", "note": "(centres undefined)", "Ratio IC50": "> 304"}
{"smiles": "COC(=O)C(C)(C)C1c2ccccc2C=NN1C(=O)/C=C/c1cc(Cc2cnc(N)nc2N)cc(OC)c1OC", "note": "(centres undefined)", "Ratio IC50": 2710}
{"smiles": "COc1cc(Cc2cnc(N)nc2N)cc(/C=C/C(=O)N2N=Cc3ccccc3C2c2ccc(CO)cc2)c1O", "note": "(centres undefined)", "Ratio IC50": "> 348"}
{"smiles": "COc1cc(Cc2cnc(N)nc2N)cc(/C=C/C(=O)N2N=Cc3ccccc3C2CCCO)c1OC", "note": "(centres undefined)", "Ratio IC50": "> 208"}
{"smiles": "COc1cc(Cc2cnc(N)nc2N)cc(/C=C/C(=O)N2N=Cc3ccccc3C2c2ccccc2)c1OCCN1CCOCC1", "note": "(centres undefined)", "Ratio IC50": "> 124"}
{"smiles": "COc1cc(Cc2cnc(N)nc2N)cc(/C=C/C(=O)N2N=Cc3ccccc3C2c2ccccc2CN(C)C)c1OC", "note": "(centres undefined)", "Ratio IC50": "> 105"}
{"smiles": "COc1ncc(C2c3ccccc3C=NN2C(=O)/C=C/c2cc(Cc3cnc(N)nc3N)cc(OC)c2OC)c(OC)n1", "note": "(centres undefined)", "Ratio IC50": "> 37"}
{"smiles": "COc1cc(Cc2cnc(N)nc2N)cc(/C=C/C(=O)N2N=Cc3ccccc3C2c2ccc(CO)cc2)c1OC", "note": "(centres undefined)", "Ratio IC50": "> 237"}
{"smiles": "COc1cc(Cc2cnc(N)nc2N)cc(/C=C/C(=O)N2N=Cc3ccccc3C2C2CCCCC2)c1OC", "note": "(centres undefined)", "Ratio IC50": "> 73"}
